A mixed list of measured activities; the numbers were collected in NIAID ChemDB.

All rows: tests in culture; species: Influenza A virus; cell line: MDCK; measure: EC50

Conditions beyond the fields shown may differ between rows. ECn: concentration that inhibits the pathogen or its effect by n%. Blank or dashed fields: not listed here. a–b is a range or a potency band.

SMILES | strain | read by | result
CC1(CO)CCC(Cn2nnc3c(N)nc(N)nc32)C1(C)C | H3N2 X31 | cytopathic effect | >50 µg/mL
CCOc1nc2c(nc(N)n2[C@@H]2O[C@H](CO)[C@@H](O)[C@H]2F)c(=O)[nH]1 | A/Sweden | plaque count | 28.5 µM
C[C@H](CO)[C@@H](OC(=O)NCCCCNCCN)[C@@H]1OC(C(=O)O)=C[C@H](N=C(N)N)[C@H]1NC(=O)O | H3N2 AICHI | plaque count | 0.019 µg/mL
CC1(C)C[C@H](O)C[C@](C)(CNC(=S)c2cccc(F)c2)C1 | H1N1 A/WSN/33 | cytopathic effect | >10 µg/mL
Cc1ccc(O)c(C(=O)NCCN2[C@H](C)CC[C@@H]3CCCC[C@H]32)c1 | H1N1 A/WSN/33 (H1N1) | plaque count | 1.5 µg/mL
Nc1nc(Cl)cc(NCC2(CO)CCC2)n1 | H1N1 A/PR/8/34 | plaque count | 82–140 µM
CC1(C)C[C@H](O)C[C@](C)(CNC(=S)c2cccc(C(F)(F)F)c2)C1 | H1N1 A/WSN/33 | cytopathic effect | >10 µg/mL
Nc1c(N2CC[N+]3(CC2)CC[N+]2(CCN(c4nc[nH]c(=O)c4N)CC2)CC3)nc[nH]c1=O | - | cytopathic effect | >70 µg/mL
CC1(CO)CCC(Cn2cnc3c(Cl)nc(N)nc32)C1(C)C | H3N2 X31 | cytopathic effect | >50 µg/mL
CC#Cc1cn([C@@H]2O[C@H](COP(=O)(N[C@H](C(=O)OC)C(C)C)Oc3ccccc3)[C@@H](O)[C@@H]2O)c(=O)[nH]c1=O | H1N1 A/Sweden/3/50 | plaque count | >100 µM
CC1=C(C)C2(C)C(N)C1[C@H](C(C)C)C[C@H]2C | - | plaque count | 12 µM
CCC(CC)O[C@@H]1C=C(C(=O)O)C[C@H](N)[C@H]1NC(C)=O | Influenza A/Johannesburg/33/94 (H3N2) | plaque count | 0.04 µM
CN1C2CCC23CC[C@@H](NC(=O)c2cc(Cl)ccc2O)CC13 | H1N1 A/WSN/33 (H1N1) | plaque count | >50 µg/mL
Cc1ccccc1C(=S)NC[C@@]1(C)C[C@@H](O)CC(C)(C)C1 | H1N1 A/WSN/33 | cytopathic effect | >10 µg/mL
C=C(N=CC)c1nc(-c2ccc(C)cc2)n(C2O[C@H](CO)[C@@H](O)[C@H](O)[C@H]2O)n1 | Ishikawa | cytopathic effect | >200 µg/mL
COc1nc2c(nc(N)n2[C@@H]2O[C@H](CO)[C@@H](O)[C@H]2F)c(=O)[nH]1 | A/Sweden | plaque count | 16 µM
CC1(CO)CCC(Cn2nnc3c(Cl)ncnc32)C1(C)C | H3N2 X31 | cytopathic effect | >50 µg/mL
C=C(N=CC)c1nc(-c2ccccc2)n(C2O[C@H](CO)[C@@H](O)[C@H](O)[C@H]2O)n1 | Ishikawa | cytopathic effect | >200 µg/mL
CC1(CO)CCC(Cc2nc3ncnc(N)c3[nH]2)C1(C)C | H3N2 X31 | cytopathic effect | >250 µg/mL
CCC(CC)[C@H](NC(C)=O)[C@@H]1C[C@@H](C(=O)O)C[C@H]1N=C(N)N | Influenza A/Washington/897/80 (H3N2) | - | <0.01 µM
CC(CC(=O)CC(C)(O)C1=C[C@@H](O)[C@@]2(C)C34OC3C[C@H]3C(C)(C)C(=O)CC[C@]3(C)C4=CC(=O)[C@]12C)C(=O)O | - | - | 190 µM
CCCC(CCC)C(NC(C)=O)C1C(N=C(N)N)CC(C(=O)O)C1O | Influenza A/Beijing/32/92 (H3N2) | - | 0.05 µM
Cc1ccc(C(=S)NC[C@@]2(C)C[C@@H](O)CC(C)(C)C2)cc1 | H1N1 A/WSN/33 | cytopathic effect | >10 µg/mL
N#C/C(=C(\N)N1CC[N+]2(CC1)CC[N+]1(CCN(/C(N)=C(/C#N)[N+](=O)[O-])CC1)CC2)[N+](=O)[O-] | - | cytopathic effect | >70 µg/mL
CCCCCCCCCCCCCCCCO[C@H]1N([C@H]2C[C@H](N=[N+]=[N-])[C@@H](CO)O2)C(=O)NC(=O)[C@]1(C)Br | Influenza A/Ishikawa/7/82 (H3N2) | cytopathic effect | >500 µg/mL
CSc1nc(Cl)c(C=O)c(N2CC[N+]3(CC2)CC[N+]2(CCN(c4nc(SC)nc(Cl)c4C=O)CC2)CC3)n1 | - | cytopathic effect | >70 µg/mL
N#Cc1cnc(N)nc1NCC1(CO)CC(CCc2ccccc2)C1 | H1N1 A/PR/8/34 | plaque count | 1.7–2.4 µM
C[C@@H]1CCC[C@H](C)N1CCNC(=O)c1cc(Cl)ccc1O | H1N1 A/WSN/33 (H1N1) | plaque count | 4.5 µg/mL
Nc1nc2c(ncn2[C@@H]2O[C@H](CO)[C@@H](O)[C@H]2F)c(=O)[nH]1 | H1N1 A/Sweden/3/50 | plaque count | 22 µM
CC=NC(=N)c1nc(-c2cccc(C)c2)n(COCCO)n1 | Ishikawa | cytopathic effect | >100 µg/mL
CC(=O)N[C@H]1[C@H]([C@H](O)[C@H](O)CO)OC(C(=O)O)=C[C@@H]1N=C(N)N | H1N1 A/TEXAS/36/91 | visual reading | 0.14 µM
CCC(C)N1C2CCC23CC[C@@H](NC(=O)c2cc(C)ccc2O)CC13 | H1N1 A/WSN/33 (H1N1) | plaque count | >50 µg/mL
Nc1nc(Cl)cc(NCC2(CO)COC2)n1 | H1N1 A/PR/8/34 | plaque count | >410 µM
CC#Cc1cn([C@@H]2O[C@H](COP(=O)(N[C@@H](C)C(=O)OC)Oc3ccccc3)[C@@H](O)[C@@H]2O)c(=O)[nH]c1=O | H1N1 A/Sweden/3/50 | plaque count | >100 µM
C[C@@H]1C2CCCC(C2NCc2ccccc2)[C@@H]1C | - | plaque count | >100 µM
CC#Cc1cn([C@@H]2O[C@H](COP(=O)(O)OCC(Cl)(Cl)Cl)[C@@H](O)[C@@H]2O)c(=O)[nH]c1=O | H1N1 A/Sweden/3/50 | plaque count | >100 µM
CCOC(=O)c1cnc(SC)nc1N1CC[N+]2(CC1)CC[N+]1(CCN(c3nc(SC)ncc3C(=O)OCC)CC1)CC2 | - | cytopathic effect | >70 µg/mL
CC1=C(C)C2(C)CC(C)(C)CC1C2N | - | plaque count | 30.4 µM
CC1(CO)CCC(Cn2cnc3c(N)nc(N)nc32)C1(C)C | H3N2 X31 | cytopathic effect | >50 µg/mL
CC1(CO)CCC(Cn2nnc3c(N)ncnc32)C1(C)C | H3N2 X31 | cytopathic effect | >50 µg/mL
C=C(N=CC)c1nc(-c2ccc(C)cc2)n([C@@H]2O[C@H](CO)[C@@H](O)[C@H]2O)n1 | Ishikawa | cytopathic effect | >100 µg/mL
CCCNC(=O)O[C@@H]([C@@H]1OC(C(=O)O)=C[C@H](N)[C@H]1NC(=O)O)[C@H](C)CO | H3N2 AICHI | plaque count | 1.25 µg/mL
CC#Cc1cn([C@@H]2O[C@H](COP(=O)(Oc3ccccc3)Oc3ccc([N+](=O)[O-])cc3)[C@@H](O)[C@@H]2O)c(=O)[nH]c1=O | H1N1 A/Sweden/3/50 | plaque count | 2.3 µM
CC1=C(C)C2C(N)C1CC[C@@H]2C | - | plaque count | >20 µM
C=C(N=CC)c1nc(-c2cccc(C)c2)n([C@@H]2O[C@H](CO)[C@@H](O)[C@H]2O)n1 | Ishikawa | cytopathic effect | >100 µg/mL
CCN(CC)C(=O)N1CCN(c2ncnc(N3CC[N+]4(CC3)CC[N+]3(CCN(c5ncnc(N6CCN(C(=O)N(CC)CC)CC6)c5[N+](=O)[O-])CC3)CC4)c2[N+](=O)[O-])CC1 | - | cytopathic effect | >70 µg/mL
O=C(N[C@@H]1CCC23CCC2N(Cc2ccccc2)C3C1)c1cc(Cl)ccc1O | H1N1 A/WSN/33 (H1N1) | plaque count | >50 µg/mL
CC[C@H]1C2CCCC(C2N)[C@H]1C | - | plaque count | 17.9 µM
Cc1cc(NCCCCCCCCNc2cc(C)nc3cc(N(C)C)ccc23)c2ccc(N(C)C)cc2n1 | B/Singapore/222/79 | cytopathic effect | >500 µg/mL
Nc1nc(Cl)cc(NCC2(CO)CCC(OCc3ccccc3)C2)n1 | H1N1 A/PR/8/34 | plaque count | 1–1.2 µM
CCC(CC)[C@H](NC(C)=O)[C@@H]1[C@H](O)[C@@H](C(=O)O)C[C@H]1N=C(N)N | Influenza A/Shandong/09/03 (H3N2) | cytopathic effect | 0.007 µM
C[C@H](CO)[C@@H](OC(=O)N1CCNCC1)[C@@H]1OC(C(=O)O)=C[C@H](N=C(N)N)[C@H]1NC(=O)O | H3N2 AICHI | plaque count | 0.031 µg/mL
O=[N+]([O-])c1c(Cl)nc(C(F)(F)F)nc1N1CC[N+]2(CC1)CC[N+]1(CCN(c3nc(C(F)(F)F)nc(Cl)c3[N+](=O)[O-])CC1)CC2 | - | cytopathic effect | >70 µg/mL
CC(N)C12CC3CC(CC(C3)C1)C2 | H1N1 A/Singapore/6/86 | ELISA | 0.03 µg/mL
C1=CCC2(CC1)COC(c1ccco1)OC2 | B/Singapore/222/79 | cytopathic effect | >500 µg/mL
C[C@H](CO)[C@@H](OC(=O)N(CCCN)CCCCN)[C@@H]1OC(C(=O)O)=C[C@H](N=C(N)N)[C@H]1NC(=O)O | H3N2 AICHI | plaque count | 0.018 µg/mL
C/C=C\[C@@H]1C[C@H](C(=O)O)N[C@H]1[C@@H](NC(C)=O)[C@](C)(CCC)OC | H1N1 isolate C28C | plaque count | ≤0.015 µg/mL
O=C(N[C@H]1CCC23CCC2N(Cc2ccccc2)C3C1)c1cc(Cl)ccc1O | H1N1 A/WSN/33 (H1N1) | plaque count | >50 µg/mL
Nc1ncnc2c1ncn2[C@@H]1O[C@H](CO)[C@@H](O)[C@H]1F | A/Sweden | plaque count | 52 µM
O=[N+]([O-])c1cncnc1N1CC[N+]2(CC1)CC[N+]1(CCN(c3ncncc3[N+](=O)[O-])CC1)CC2 | - | cytopathic effect | >70 µg/mL
Cc1ccc(O)c(C(=O)NCCN2[C@H](C)CC[C@@H]3CCCC[C@@H]32)c1 | H1N1 A/WSN/33 (H1N1) | plaque count | 0.19 µg/mL
C=C(N=CC)c1nc(-c2ccc(OC)cc2)n([C@@H]2O[C@H](CO)[C@@H](O)[C@H]2O)n1 | Ishikawa | cytopathic effect | >200 µg/mL
Cc1ccc(O)c(C(=O)NCCN2[C@H](C)CCC[C@@H]2C)c1 | H1N1 A/WSN/33 (H1N1) | plaque count | 1.8 µg/mL
CC(C)[C@@H]1CCC2(C)C(N)C1[C@H](C)[C@@H]2C | - | plaque count | 67 µM

A second listing of 6 rows from above:

SMILES	strain	read by	result
CCOC(=O)c1cnc(SC)nc1N1CC[N+]2(CC1)CC[N+]1(CCN(c3nc(SC)ncc3C(=O)OCC)CC1)CC2	-	cytopathic effect	>70 µg/mL
C[C@@H]1CCC[C@H](C)N1CCNC(=O)c1cc(Cl)ccc1O	H1N1 A/WSN/33 (H1N1)	plaque count	4.5 µg/mL
Nc1nc(Cl)cc(NCC2(CO)COC2)n1	H1N1 A/PR/8/34	plaque count	>410 µM
C[C@H](CO)[C@@H](OC(=O)NCCCCNCCN)[C@@H]1OC(C(=O)O)=C[C@H](N=C(N)N)[C@H]1NC(=O)O	H3N2 AICHI	plaque count	0.019 µg/mL
CC(N)C12CC3CC(CC(C3)C1)C2	H1N1 A/Singapore/6/86	ELISA	0.03 µg/mL
Cc1ccc(C(=S)NC[C@@]2(C)C[C@@H](O)CC(C)(C)C2)cc1	H1N1 A/WSN/33	cytopathic effect	>10 µg/mL